In patent publication US10011599B2 (priority 2013, dated 2018):

Test system: A375 cells
Test: cells
Details: Homo sapiens, A-375, 72 h, read-out: A375 XTT IC50 uM

Row | SMILES | IC50 [µM]
1 | Cc1nc2cnc3cc(F)c(-c4ccc(Oc5ncccn5)cc4Cl)cc3c2n1[C@H]1CCN(C(=O)CF)C[C@@H]1F [Example 97, 1-((3S,4S)-4-(8-(2-chloro-4-(pyrimidin-2-yloxy)phenyl)-7-fluoro-2-methyl-1H-imidazo[4,5-c]quinolin-1-yl)-3-fluoropiperidin-1-yl)-2-fluoroethanone] | 0.09
2 | Cc1nc2cnc3cc(F)c(-c4ccc(Oc5ncccn5)cc4Cl)cc3c2n1C1CCN(C(=O)CF)CC1 [Example 96, 1-(4-(8-(2-chloro-4-(pyrimidin-2-yloxy)phenyl)-7-fluoro-2-methyl-1H-imidazo[4,5-c]quinolin-1-yl)piperidin-1-yl)-2-fluoroethanone] | 0.394
